In the NIST ThermoML archive (doi:10.1021/acs.jced.8b00590):

Assay: xn = mol fraction of the nth substance listed
Details: 101.3 kPa, Liquid; for mass density: Vibrating tube method; for viscosity: Falling or rolling sphere viscometry

O=S(=O)(F)[N-]S(=O)(=O)F.[Li+] [lithium bis(fluorosulfonyl)imide] + CCCCC#N
Details	mass density, 283.15 K [kg/m3]	mass density, 293.15 K [kg/m3]	mass density, 303.15 K [kg/m3]	mass density, 313.15 K [kg/m3]	mass density, 323.15 K [kg/m3]	mass density, 333.15 K [kg/m3]	viscosity, 293.15 K [mPa·s]	viscosity, 313.15 K [mPa·s]	viscosity, 333.15 K [mPa·s]
x1 = 0.0499	–	–	–	–	–	–	1.336 ± 0.068	0.9852 ± 0.05	0.7657 ± 0.039
x1 = 0.1	927.9 ± 2.8	919.1 ± 2.8	910.3 ± 2.7	901.5 ± 2.7	892.6 ± 2.7	883.8 ± 2.7	2.521 ± 0.041	1.723 ± 0.024	1.276 ± 0.065
x1 = 0.1997	1053.5 ± 3.2	1044.4 ± 3.1	1035.3 ± 3.1	1026.2 ± 3.1	1017.1 ± 3.1	1008.1 ± 3	11.67 ± 0.19	6.606 ± 0.091	4.215 ± 0.053
x1 = 0.2999	1166.4 ± 3.5	1157.2 ± 3.5	1148 ± 3.5	1138.8 ± 3.4	1129.7 ± 3.4	1120.6 ± 3.4	41.82 ± 0.57	21.07 ± 0.3	12.21 ± 0.17
x1 = 0.3443	–	–	–	–	–	–	65.03 ± 0.95	30.47 ± 0.45	16.88 ± 0.24
x1 = 0.4076	1277.3 ± 3.8	1267.8 ± 3.8	1258.4 ± 3.8	1249 ± 3.8	1239.8 ± 3.7	1230.6 ± 3.7	123.64 ± 4	53.2 ± 0.73	27.5 ± 0.4
x1 = 0.4999	–	–	–	–	–	–	382.17 ± 26	117.83 ± 3.8	59.39 ± 0.89

Numbers after ± are expanded uncertainties.
